# From PubChem BioAssay AID1159583 (ICCB-Longwood Screening Facility, Harvard Medical School, 2016)
# This is a selection; strong and weak results do not stand in their true shares. The source made the active and inactive calls. Cut-off read from the data, not from the text of the source: active = fluorescence inhibition mostly above about 23% (no sharp cut-off); inactive = mostly below about 17%.
# Test: hypoxia reporter signal reduction in M. tuberculosis – fluorescence, absorbance growth readout, primary screen (AID 1159583)
# Details: M. tuberculosis hypoxia-regulated fluorescent reporter, active compounds read high, concentration not given here
row,Compound,fluorescence inhibition
1,CCOC(=O)Nc1ccc([As](=O)(O)O)c(O)c1,active: 34.6%
